Results of unrelated studies side by side (data: NIAID ChemDB).

All rows: whole-cell or culture tests; agent: Mycobacterium tuberculosis

Rows are shuffled and stem from different studies. An empty or dashed field is not shown. ECn is the concentration giving n% inhibition of infection, replication or growth. Percent inhibition refers to the dose given; in toxicity tests it is the harm to the cells. a–b is a range or a potency band. MIC50, MIC90 and the like: level of inhibition, or share of isolates inhibited. MIC bound: limit read from a one-dose screen.

compound,dose,measure,strain or isolate,changes,cells,read by,result
CSC(=S)NN,128 µg/mL,inhibition,H37Rv,-,-,BACTEC,100%
CN[C@@H]1[C@H](O[C@H]2[C@H](O[C@H]3[C@H](O)[C@@H](O)[C@H](N=C(N)N)[C@@H](O)[C@@H]3N=C(N)N)O[C@@H](C)[C@]2(O)C=O)O[C@@H](CO)[C@H](O)[C@H]1O,-,MBC,-,-,-,-,4 µg/mL
O=C(Cc1csc2nc(-c3ccccc3)cn12)NN=C1CCCCC1,-,EC50,H37Rv,-,-,-,>6.25 µg/mL
c1cncc(C2Nc3cccc4cccc(c34)N2)c1,128 µg/mL,inhibition,H37Rv,-,-,BACTEC,60%
CN(C)c1ccc(O)c2c1C[C@H]1C[C@H]3[C@H](N(C)C)C(=O)C(C(N)=O)=C(O)[C@@]3(O)C(=O)C1=C2O,-,MBC,-,-,-,-,>64 µg/mL
O=c1[nH]c(=O)n(-c2ccc([N+](=O)[O-])cc2[N+](=O)[O-])cc1F,6.25 µg/mL,inhibition,-,-,-,-,<90%
CNC(=O)c1nn(C)c(=O)[nH]c1=O,12.5 µg/mL,inhibition,H37Rv,-,-,BACTEC,-1%
O=C1Nc2ccc(F)cc2C1=O,-,MIC90,H37Rv,-,-,resazurin,<6.25 µg/mL
COC(=O)c1ccccc1NC(=O)C(=O)CC(=O)c1ccccc1NC1=CC(=O)C(=O)c2ccccc21,6.25 µg/mL,inhibition,H37Rv,-,-,resazurin,-4%
CCCSc1ccc(C(=S)NC)cc1,-,MIC,H37Rv,-,-,-,>355 µM
CC(C)(C)c1ncc(C(=O)NN)[nH]1,6.25 µg/mL,inhibition,H37Rv,-,-,-,10%
CC1CCCC2(C1)SC(C)C(=O)N2NC(=O)Cc1csc2nc(-c3ccc(Cl)cc3)cn12,6.25 µg/mL,inhibition,H37Rv,-,-,-,66%
CCCCCCCCCCCCCCCCCCCSCCCC(=O)O,-,MIC50,H37Ra,-,-,-,0.63–1.25 µg/mL
N#Cc1nc2ccccc2nc1Cl,-,EC50,H37Rv,-,-,-,<12.5 µg/mL
COc1cc(O)c2c(=O)c(OC)c(-c3ccc(O)cc3)oc2c1,-,EC50,H37Rv,-,-,BACTEC,>100 µg/mL
CCC(C)Sc1ccc(C(=S)NC)cc1,-,MIC,H37Rv,-,-,-,334 µM
CC[C@@H](CO)NCCN[C@@H](CC)CO,-,MIC,ATCC 27294,-,-,resazurin,14.4 µM
Cn1c(=O)c([N+](=O)[O-])cn(-c2ccc([N+](=O)[O-])cc2)c1=O,6.25 µg/mL,inhibition,-,-,-,-,<90%
CC1CCC2(CC1)SC(C)C(=O)N2NC(=O)Cc1csc2nc(-c3ccc(Cl)cc3)cn12,6.25 µg/mL,inhibition,H37Rv,-,-,-,89%
O=c1[nH]c(=O)n(CCO)cc1[N+](=O)[O-],6.25 µg/mL,inhibition,-,-,-,-,<90%
O=C(O)c1ccc(N2C(=O)CSC2c2ccc(F)cc2)cc1O,-,MIC90,H37Rv,-,-,resazurin,<6.25 µg/mL
C[C@@H]1CN(c2c(F)c(N)c3c(=O)c(C(=O)O)cn(C4CC4)c3c2F)C[C@H](C)N1,-,MIC,2 isolates,-,-,-,0.1 µg/mL
O=C(Cc1csc2nc(-c3ccc(Cl)cc3)cn12)NN1C(=O)CSC12CCCCC2,-,MIC,H37Rv,-,-,-,>6.25 µg/mL
O=c1[nH]c(=O)n(CCCO)cc1[N+](=O)[O-],6.25 µg/mL,inhibition,-,-,-,-,<90%
O=C(NCC(=O)N1CCN(c2ccc(N3C[C@H](Cn4ccnn4)OC3=O)cc2F)CC1)C1=CC=C([N+](=O)[O-])C1,-,MIC,H37Rv,-,-,broth dilution / visual reading,0.5 µM
CO[C@@]12[C@H](COC(N)=O)C3=C(C(=O)C(C)=C(N4CCCC4)C3=O)N1C[C@@H]1N[C@@H]12,-,MIC bound,H37Rv,-,-,BACTEC,≤12.5 µg/mL
CCOC(=O)c1nc(C(C)(C)C)[nH]c1C(C)(C)C,-,MIC,H37Rv,-,-,-,>6.25 µg/mL
N#Cc1nc2cc(C(F)(F)F)ccc2nc1Cl,-,MIC,H37Rv,-,-,-,>12.5 µg/mL
O=c1[nH]c(=O)n(-c2ccc([N+](=O)[O-])cc2)cc1Br,6.25 µg/mL,inhibition,-,-,-,-,<90%
CC(=O)NCC1CN(c2ccc(C(C)=O)cc2)C(=O)O1,-,MIC,H37RV (SM-R),-,-,-,0.97 µg/mL
CNC(=S)c1ccc(SC)cc1,-,MIC,H37Rv,-,-,-,>405 µM
Cc1nc(N)c2ncn([C@@H]3O[C@H](CO)[C@@H](O)[C@H]3O)c2n1,-,MIC,Ciprofloxacin-resistant,-,-,-,6.25 µg/mL
CNn1cc(C(=O)O)c(=O)c2cc(F)c(N3CCN(C)CC3)cc21,-,MIC50,22 isolates,-,-,-,4 µg/mL
CC1(C(=O)N2CCN(S(=O)(=O)c3cccc4cnccc34)CC2)CCCCC1,-,MIC90,SRMV2.6,Inosine monophosphate dehydrogenase-resistant,-,resazurin,>250 µM
Cc1cn2c(C(=O)NCc3ccc(Oc4ccc(F)cc4)cc3)c(C)nc2s1,-,MIC,H37Rv,-,-,resazurin / fluorescence,0.047 µM
O=C1[C@H](Cl)[C@@H](c2ccccc2Cl)N1NC1=Nc2ccccc2Sc2ccccc21,-,MIC,H37Rv,-,-,broth dilution,100 µg/mL
COC1/C=C\C=C(/C)C(=O)Nc2cc3nc4cccc(Br)c4oc-3c(c2=O)CC(C)CC(OC)C(O)C(C)/C=C(\C)C1OC(N)=O,-,MIC,H37Rv,-,VERO,-,1.56 µg/mL
Clc1ccc(CSc2ncnc3c2cnn3Cc2cccnc2)cc1,-,MIC,H37Rv,-,-,-,1 µg/mL
O=C(CC1CCCCC1)N1CCN(S(=O)(=O)c2cccc3cnccc23)CC1,-,MIC90,SRMV2.6,Inosine monophosphate dehydrogenase-resistant,-,resazurin,>250 µM
CSc1ccc(/C=C/C(N)=S)cc1,-,MIC,H37Rv,-,-,-,191 µM
O=C(Nc1ccc(C(=O)O)c(O)c1)c1ccc(F)cc1,-,MIC90,H37Rv,-,-,resazurin,<6.25 µg/mL
NNC(=O)NN1C(=O)c2cc(S(=O)(=O)[O-])cc3c(N)c(S(=O)(=O)[O-])cc(c23)C1=O,-,MIC bound,H37Rv,-,-,resazurin,>6.25 µg/mL
CCCCCNC(=O)CCc1cnc(C2C3CC4CC(C3)CC2C4)[nH]1,6.25 µg/mL,inhibition,H37Rv,-,-,-,25%
CCNc1cc2oc(=O)cc(C(F)(F)F)c2cc1C,-,MIC bound,H37Rv,-,-,BACTEC,>12.5 µg/mL
CC(C)c1ncc(C(=O)O)[nH]1,-,MIC,H37Rv,-,-,-,>6.25 µg/mL
Br.O=C1N=NC2NC=CN3C=CC=C1C23,12.5 µg/mL,inhibition,H37Rv,-,-,BACTEC,0%
Cc1cn2c(C(=O)NCc3ccc(N4CCOCC4)c(F)c3)c(C)nc2s1,-,MIC,H37Rv,-,-,luminescence,>100 µM
C=CCSc1ccc(C(=S)NC)cc1,-,MIC,H37Rv,-,-,-,>268 µM
NC(=O)N/N=C/c1ccc([N+](=O)[O-])o1,6.25 µg/mL,inhibition,H37Rv,-,-,resazurin,-1%
O=C(O)c1ccc(NC(C(=O)c2ccc(F)cc2)N2CCN(C(Nc3ccc(C(=O)O)c(O)c3)C(=O)c3ccc(F)cc3)CC2)cc1O,-,MIC90,H37Rv,-,-,resazurin,<6.25 µg/mL
Cc1cn2c(C(=O)NCc3ccc(N4CCN(c5ccc(C(F)(F)F)cn5)CC4)c(F)c3)c(C)nc2s1,-,MIC,H37Rv,K14b00DS,-,resazurin / fluorescence,0.125 µM
COC(=O)CNC(=O)c1cnc(C2C3CC4CC(C3)CC2C4)[nH]1,6.25 µg/mL,inhibition,H37Rv,-,-,-,21%
Cc1cn2c(C(=O)NCc3ccc(C(F)(F)F)cc3)c(C)nc2s1,-,MIC,H37Rv,QcrB6 A317T,-,resazurin / fluorescence,4.7 µM
CN=S(=O)(c1ccccc1)c1ccccc1,12.5 µg/mL,inhibition,H37Rv,-,-,BACTEC,30%
Cc1cn2c(C(=O)NCc3cccc(C(F)(F)F)c3)c(C)nc2s1,-,MIC,H37Rv,-,-,resazurin / fluorescence,0.459 µM
O.O=C(Cc1csc2nc(-c3ccccc3)cn12)NN1C(=O)CSC12CCCCC2,6.25 µg/mL,inhibition,H37Rv,-,VERO,-,96%
CCn1cc(C(=O)O)c(=O)c2cc(F)c(N3CCNCC3)cc21,-,MIC,10 isolates,-,-,-,15.6–31.2 µg/mL
Cc1c(N)nc(C(CC(N)=O)NCC(N)C(N)=O)nc1C(=O)NC(C(=O)NC(C)C(O)CC(=O)NC(C(=O)NC(OC1OC(C)C(N)C(O)C1O)C(O)c1nc(-c2nc(C(=O)NCCC[S+](C)C)cs2)cs1)C(C)O)C(OC1OC(CO)C(O)C(O)C1OC1OC(CO)C(O)C(OC(N)=O)C1O)c1cnc[nH]1.Cl.Cl.Cl.[Cl-],-,MIC,H37Rv,-,VERO,-,0.4 µg/mL
CN(C)c1ccc([C@@H]2[C@@H](Cl)C(=O)N2NC2=Nc3ccccc3Sc3ccccc32)cc1,-,MIC,H37Rv,-,-,broth dilution,1000 µg/mL
O=C(O)c1nc(C2C3CC4CC(C3)CC2C4)[nH]c1C1C2CC3CC(C2)CC1C3,-,MIC,H37Rv,-,-,-,>6.25 µg/mL
CCCSc1ccc(C(N)=S)cc1,-,MIC,H37Rv,-,-,-,284 µM
COc1ccc([C@@H]2[C@@H](Cl)C(=O)N2NC2=Nc3ccccc3Sc3ccccc32)cc1,-,MIC,H37Rv,-,-,broth dilution,1000 µg/mL
CCOC(=O)CC(=O)NCC(=O)N1CCN(c2ccc(N3C[C@H](Cn4cc(C)nn4)OC3=O)cc2F)CC1,-,MIC,H37Rv,-,-,visual reading,>47 µM
Fc1ccc(-c2nc3cc(-c4ccccc4)[nH]n3c2N=Nc2ccccc2)cc1,-,MIC bound,H37Rv,-,-,BACTEC,>12.5 µg/mL
O=c1[nH]c(=O)n(-c2ccc([N+](=O)[O-])cc2)cc1F,6.25 µg/mL,inhibition,-,-,-,-,<90%
COc1cccc2c1C(=O)c1c(O)c3c(c(O)c1C2=O)C[C@@](O)(/C(C)=N/NC(N)=O)CC3OC1CC(N)C(O)C(C)O1.Cl,-,MIC,H37Rv,-,-,BACTEC,≥12.5 µg/mL
O=C1CSC(c2ccc(F)cc2)N1NC1=Nc2ccccc2Sc2ccccc21,-,MIC,H37Rv,-,-,broth dilution,250 µg/mL
CC(=O)OC1C(O[C@H]2CC[C@]34O[C@]35CC[C@]3(C)C(C6(C)CC[C@@H](C(C)(C)O)O6)[C@@H](O)CC3(C)[C@@H]5CC(OC3OC(CO)C(O)C(O)C3O)C4C2(C)C)OCC(O)C1O,12.5 µg/mL,inhibition,H37Rv,-,-,BACTEC,6%
CCCCCCCCCCCCCCCCCCCCSCCC(=O)O,-,MIC50,H37Ra,-,-,-,0.63–1 µg/mL
CCCCN(C)/N=N/c1nc[nH]c1C(N)=O,12.5 µg/mL,inhibition,H37Rv,-,-,BACTEC,97%
COc1ccc(CC(=O)N2CCN(S(=O)(=O)c3cccc4cnccc34)CC2)c(OC)c1,-,MIC90,SRMV2.6,Inosine monophosphate dehydrogenase-resistant,-,resazurin,>250 µM
C[C@H]1CC[C@H]([C@@H](C)[C@H]2[C@@H](O)C[C@H]3[C@@H]4CC[C@H]5C[C@@H](O)CC[C@]5(C)[C@H]4CC[C@]23C)NC1,12.5 µg/mL,inhibition,H37Rv,-,-,BACTEC,0%
O=C(O)c1cnc(C2CCCC2)[nH]1,6.25 µg/mL,inhibition,H37Rv,-,-,-,0%
CC(C)(CO)NCC(C)(C)NC(Cc1ccccc1Cl)c1ccccc1.Cl.Cl,-,MIC bound,H37Rv,-,-,BACTEC,>12.8 µg/mL
CC(C)/C=N/NC(=O)c1cnc(C2C3CC4CC(C3)CC2C4)[nH]1,-,MIC,H37Rv,-,-,-,>6.25 µg/mL
CO[C@H]1/C=C/O[C@@]2(C)Oc3c(C)c(O)c4c(O)c(c5c(c4c3C2=O)NC2(CCN(CC(C)C)CC2)N=5)=NC(=O)/C(C)=C\C=C\[C@H](C)[C@H](O)[C@@H](C)[C@@H](O)[C@@H](C)[C@H](OC(C)=O)[C@@H]1C,-,MIC,-,-,-,-,0.03 µg/mL
CSc1ccc(C(N)=S)cc1,-,MIC,H37Rv,-,-,-,328 µM
O=C(O)c1ccc(NNC(=S)Nc2ccc(F)cc2)cc1O,-,MIC90,H37Rv,-,-,resazurin,<6.25 µg/mL
Cc1cc2c(S(=O)(=O)N3CCN(C(=O)C4CCCCC4)CC3)cccc2cn1,-,MIC90,SRMV2.6,Inosine monophosphate dehydrogenase-resistant,-,resazurin,>100 µM
CC1CCC(=NNC(=O)Cc2csc3nc(-c4ccc(Cl)cc4)cn23)CC1,6.25 µg/mL,inhibition,H37Rv,-,-,-,4%
O=C(O)c1ccc(NC(C(=O)c2ccc(F)cc2)N2CCCCC2)cc1O,-,MIC90,H37Rv,-,-,resazurin,<6.25 µg/mL
CN(C)CCCN1c2ccccc2S(=O)c2ccc(Cl)cc21.Cl,-,MIC bound,H37Rv,-,-,BACTEC,>12.5 µg/mL
CC1SC2(CCCCC2)N(NC(=O)Cc2csc3nc(-c4ccc(Cl)cc4)cn23)C1=O,-,EC50,H37Rv,-,-,-,<6.25 µg/mL
O=C(NCCNS(=O)(=O)c1cccc2cnccc12)C1CCCCC1,-,MIC90,SRMV2.6,Inosine monophosphate dehydrogenase-resistant,-,resazurin,>250 µM
CC1CCC2(CC1)SCC(=O)N2NC(=O)Cc1csc2nc(-c3ccc(Cl)cc3)cn12,-,MIC,H37Rv,-,-,-,>6.25 µg/mL
O=c1cc(C(F)(F)F)c2cc3c4c(c2o1)CCCN4CCC3,-,MIC,H37Rv,-,-,BACTEC,≥12.5 µg/mL
O=C(NCc1ccccc1)N1CCN(S(=O)(=O)c2cccc3cnccc23)CC1,-,MIC90,SRMV2.6,Inosine monophosphate dehydrogenase-resistant,-,resazurin,>100 µM